Results of unrelated studies side by side (data: NIAID ChemDB).

All rows: enzyme or target tests; species: HIV-1; protein: Integrase; read-out: IC50

ICn: concentration for n% inhibition. Conditions beyond the fields shown may differ between rows. An empty or dashed field is not shown. a–b is a range or a potency band.

smiles,method,changes,result
N#C/C(=C\c1ccc(O)c(O)c1)C(=O)NCCc1ccc(O)c(O)c1,strand transfer,,2.7 µM
CN1CCC(C2Sc3ccccc3C(=O)N3CCCC23)CC1,strand transfer,,>125 µM
CN1C[C@@H](O)C(C)(C)Cn2c(c3c(c(O)c2=O)C(=O)N(Cc2ccc(F)c(Cl)c2)CC3)C1=O,strand transfer,,0.003 µM
N=C(N)c1ccc2cc(C#Cc3ccc4ccccc4c3)ccc2c1,strand transfer,,13 µM
Cc1ccc(S(=O)(=O)n2cc(C(=O)/C=C3\OC(C)(C)OC3=O)c3cc(Br)ccc32)cc1,strand transfer / fluorescence,G140S,4.7 µM
O=C1Sc2ccc(Cl)cc2C(=O)N2CS(=O)CC12,strand transfer,,240 µM
Nc1ccc2c(c1)C(=O)N(O)C(=O)C2C(=O)NCc1ccc(F)cc1,strand transfer,,0.382 µM
CC(C)/C=C/c1cc(C(=O)Nc2cccc(OC3CCCC3)c2)cc2ccc(C(=N)N)cc12,strand transfer,,2.6 µM
O=C(O)C(=O)/C=C(\O)c1ccccc1,3′ processing,,>100 µM
O=C(O)C(=O)/C=C(\O)c1cn(Cc2cc(F)ccc2F)c2ccc(Br)cc12,strand transfer / fluorescence,Y143R,15.6 µM
CC(=O)Oc1cccc2c1C(=O)C1CC(O)C(O)C3OC(C)(C)OC2(C)C13,3′ processing,,118 µM
N=C(N)c1ccc2cc(C#Cc3ccc(CO)cc3)ccc2c1,strand transfer,,3.2 µM
C=CCNC(=O)C1C(=O)N(O)C(=O)c2ccccc21,strand transfer,,50 µM
Cc1ccc(C(=O)Nc2ccc3c(c2)c(C(C(=O)O)C(=O)O)cn3S(=O)(=O)c2ccc(C)cc2)cc1,strand transfer / fluorescence,,>25 µM
COc1cc(O)c(C(=O)O)c(-c2cc(O)c(O)cc2C)c1,strand transfer,,25 µM
O=C(NCc1ccccc1)c1c(O)n(O)c(=O)c2cc([N+](=O)[O-])ccc12,strand transfer,,0.003 µM
CN1CCN(Cc2ccc3n2C(=O)c2ccccc2SC3c2ccccc2)CC1,strand transfer,,>1000 µM
O=C1NC(=O)C(=Cc2cc(O)c(O)c(O)c2)C(=O)N1,strand transfer,,4 µM
O=C(/C=C/c1ccc(O)c(O)c1)O[C@H]1CCCC[C@@H]1OC(=O)/C=C/c1ccc(O)c(O)c1,3′ processing,,24.8 µM
COC(=O)C(=O)/C=C(\O)c1ccc2cc(O)c(O)cc2c1,3′ processing,,11.3 µM
C=C1CC[C@H]2[C@](C)(CCC=C(C)C)[C@@H](OC(C)=O)CC[C@]2(C)[C@@H]1Cc1c(OC)oc(C)c(C)c1=O,strand transfer,,25 µM
COc1cc2c(cc1OC)C(=O)N1CSCC1C(=O)S2,3′ processing,,650 µM
CCCCCCCCCCCCNC(=O)C1C(=O)N(O)C(=O)c2ccccc21,strand transfer,,20.73 µM
CCN1C/C(=C\c2ccc(O)c([N+](=O)[O-])c2)C(=O)/C(=C/c2ccc(O)c([N+](=O)[O-])c2)C1,3′ processing,,>100 µM
CC(C)=C/C=C\[C@H](C)[C@H]1CC[C@]2(C)C[C@H]3[C@@H]4C(=C[C@@H]12)COC4(O)C[C@@]3(C)O,absorbance,,30 µM
Cc1ccc(CNC(=O)C2C(=O)N(O)C(=O)c3ccccc32)cc1,strand transfer,,2.55 µM
N=C(N)c1ccc2cc(C#Cc3ccccc3)ccc2c1,strand transfer,,22 µM
COc1cc(-c2ccc(O)cc2)c(OC)c(O)c1-c1ccc(O)c(O)c1,absorbance,,2.8 µM
O=C(O)C(C(=O)O)c1c[nH]c2ccc([N+](=O)[O-])cc12,strand transfer / fluorescence,Y143R,23.5 µM
CC(O)C(=O)C[C@@H]1O[C@H](COC(=O)c2ccc(O)c(OC(=O)c3ccc(O)c(OC(=O)C4=CC(=O)C(=O)C=C4)c3)c2)[C@@H](OC(=O)c2ccc(O)c(OC(=O)c3ccc(O)c(OC(=O)C4=CC(=O)C(=O)C(O)=C4)c3)c2)[C@H](OC(=O)c2ccc(O)c(OC(=O)C3=CC(=O)C(=O)C(OC(=O)c4ccc(O)c(OC(=O)C5=CC(=O)C(=O)C(O)=C5)c4)=C3)c2)[C@H]1OC(=O)c1ccc(O)c(OC(=O)c2ccc(O)c(OC(=O)C3=CC(=O)C(=O)C(O)=C3)c2)c1,3′ processing,,6 µM
N#C/C(=C\c1cc(O)c(O)c(Br)c1)C(=O)NCCCNC(=O)/C(C#N)=C/c1cc(O)c(O)c(Br)c1,strand transfer,,0.4 µM
C/C=C/[C@@H]1C=C[C@@H]2C[C@H](C)CC[C@H]2[C@]1(C)/C(O)=C1/C(=O)[C@H](CO)N(C)C1=O,strand transfer,,7 µM
CCOC(=O)C(C(=O)OCC)c1cn(S(=O)(=O)c2ccc(C)cc2)c2ccc(NC(=O)c3cccc(C)c3O)cc12,strand transfer / fluorescence,Y143R,24.9 µM
Cn1c(=O)c2[nH]c(SSc3nc4c([nH]3)c(=O)n(C)c(=O)n4C)nc2n(C)c1=O,3′ processing,,>250 µM
N#C/C(=C\c1cc(O)c(O)c(O)c1)C(=O)NCCCCNC(=O)/C(C#N)=C/c1cc(O)c(O)c(O)c1,3′ processing / substrate cleavage,,0.66 µM
CN1C(=O)C(=O)/C(=C(\O)c2ccccn2)C1c1cccc(Cl)c1,strand transfer,,>100 µM
O=C(O)C(=O)/C=C(\O)c1ccccc1O,3′ processing,,>100 µM
N#C/C(=C\c1ccc(O)c(O)c1)C(=O)NCCCc1ccccc1,strand transfer,,10–100 µM
CN1CCc2ccc([C@@H]3CC3c3ccc4cc(C(=N)N)ccc4c3)cc2C1c1cccnc1,strand transfer,,63 µM
O=C(NCc1ccc(F)cc1)C1C(=O)N(O)C(=O)c2cc(F)ccc21,strand transfer,,0.5 µM
COc1cc(OC)c2c(O)c3c(c(-c4ccc5cc6c(c(O)c5c4O)C(=O)CC(C)(O)C6)c2c1)CC(C)OC3C,3′ processing,,21 µM
CC(=O)OC1CC[C@@]2(C)C(CC[C@]3(C)C2CC=C2C4CC(C)(C)CC[C@]4(C(=O)O)CC[C@]23C)C1(C)C,strand transfer / absorbance,,>100 µg/mL
N#C/C(=C\c1ccc(O)c(O)c1)C(=O)NCCCCCCNC(=O)/C(C#N)=C/c1ccc(O)c(O)c1,disintegration,,3 µM
C[C@H]1CC[C@@H]2N(C1)C[C@@H]1[C@](O)([C@@H](O)C[C@@]3(O)[C@@H]4CC[C@@H]5[C@]6(O)O[C@@]4(C[C@@]13O)[C@@]5(C)CC[C@H]6O)[C@]2(C)O,3′ processing,,>250 µM
CCOC(=O)CC1C/C(=C\c2ccc(O)c(O)c2)C(=O)/C(=C/c2ccc(O)c(O)c2)C1,3′ processing,,2.8 µM
CC1=C(C(=O)Nc2ccccc2C)C(c2ccc(C3C(C(=O)Nc4ccccc4C)=C(C)NC(C)=C3C(=O)Nc3ccccc3C)cc2)C(C(=O)Nc2ccccc2C)=C(C)N1,3′ processing,,>250 µM
O=C(O)C(=O)/C=C(\O)c1ccc2cc(O)c(O)cc2c1,3′ processing,,1.9 µM
N=C(N)c1ccc2cc(C#Cc3ccc4c(c3)CCNC4)ccc2c1,strand transfer,,45 µM
O=C1C(=Cc2ccc(Cl)c(Cl)c2)CCCC1=Cc1ccc(Cl)c(Cl)c1,strand transfer,,>100 µM
COC(O)/C=C/c1ccc2c(c1)c(C(=O)/C=C1\OC(C)(C)OC1=O)cn2Cc1ccc(F)cc1,strand transfer / fluorescence,Y143R,16.5 µM
N=C(N)c1ccc2cc(C(=O)Nc3cccc(OC4CCCC4)c3)cc(Br)c2c1,strand transfer,,15.6 µM
CC1CCN(C(=O)c2cc(Nc3ccnc4cc(Cl)ccc34)ccc2O)CC1,3′ processing,,>250 µM
O=C1Sc2ccc(Cl)cc2C(=O)N2CCSC12,3′ processing,,125 µM
CC1(C)OC(=O)/C(=C/C(=O)c2c[nH]c3ccc(Br)cc23)O1,strand transfer / fluorescence,Y143R,15.9 µM
CC(C)C1=NCCc2ccc([C@@H]3CC3c3ccc4cc(C(=N)N)ccc4c3)cc21,strand transfer,,183 µM
CC(O)/C=C/c1ccc2c(c1)c(C(=O)/C=C1\OC(C)(C)OC1=O)cn2Cc1ccc(F)cc1,strand transfer / fluorescence,,11.6 µM
O=C(NCc1ccc(F)cc1)C1C(=O)N(O)C(=O)c2cc(Cl)ccc21,strand transfer,,0.26 µM
COC(=O)C(=O)/C=C(\O)c1ccc(O)c(O)c1,strand transfer,,84.4 µM

Again, the opening 8 rows:

smiles	method	changes	result
N#C/C(=C\c1ccc(O)c(O)c1)C(=O)NCCc1ccc(O)c(O)c1	strand transfer		2.7 µM
CN1CCC(C2Sc3ccccc3C(=O)N3CCCC23)CC1	strand transfer		>125 µM
CN1C[C@@H](O)C(C)(C)Cn2c(c3c(c(O)c2=O)C(=O)N(Cc2ccc(F)c(Cl)c2)CC3)C1=O	strand transfer		0.003 µM
N=C(N)c1ccc2cc(C#Cc3ccc4ccccc4c3)ccc2c1	strand transfer		13 µM
Cc1ccc(S(=O)(=O)n2cc(C(=O)/C=C3\OC(C)(C)OC3=O)c3cc(Br)ccc32)cc1	strand transfer / fluorescence	G140S	4.7 µM
O=C1Sc2ccc(Cl)cc2C(=O)N2CS(=O)CC12	strand transfer		240 µM
Nc1ccc2c(c1)C(=O)N(O)C(=O)C2C(=O)NCc1ccc(F)cc1	strand transfer		0.382 µM
CC(C)/C=C/c1cc(C(=O)Nc2cccc(OC3CCCC3)c2)cc2ccc(C(=N)N)cc12	strand transfer		2.6 µM